Common to all, as to type: cell-based, Salmonella enterica serovar Typhimurium
Data set [1] concerns Salmonella wild-type (14028). Put plainly: Mass spectrometry measurement of intracellular 6-P-F-Asp, wild-type. The conditions noted are these: * below 20 nmol, lowest standard.
The test system of a further data set is ΔfraB::kan (HMB206). Nature of the data set: Mass spectrometry measurement of intracellular 6-P-F-Asp, fraB mutant.
In data set [2] the test system is Δfra island deletion (HMB215). Put plainly: Mass spectrometry measurement of intracellular 6-P-F-Asp, fra island deletion. The conditions noted are these: * below 20 nmol, lowest standard.
[3] abbreviates: transition m/z 376→125, after 30 min in 5 mM F-Asn.
The mark [4] stands for this setting: transition m/z 376→125, three replicates.
Where [5] appears, read: transition m/z 376→242, after 30 min in 5 mM F-Asn.
[6] abbreviates: transition m/z 376→242, three replicates.

“And” between values parts separate entries of the source, which are not always exact repeats. Identical values can stand only once.

As for 6-phosphofructose-aspartate [6-P-F-Asp], the “6-P-F-Asp, replicate” value in data set [1] (setting [3]) is 8.54* nmol and 8.51* nmol (2×); in data set [1] (setting [5]) it was 10.44* nmol and 10.45* nmol (2×); in the data set on ΔfraB::kan (HMB206) (setting [3]) it was 80 nmol and 110 nmol and 100 nmol; with ΔfraB::kan (HMB206) (setting [5]), 80 nmol and 93 nmol and 89 nmol; in data set [2] (setting [3]) it was 8.50* nmol and 8.53* nmol (2×); in data set [2] (setting [5]), 10.48* nmol and 10.46* nmol and 10.45* nmol. In addition, the “6-P-F-Asp, average” value is recorded as 8.52* nmol in data set [1] (setting [4]); 10.45* nmol in data set [1] (setting [6]); 100 nmol with ΔfraB::kan (HMB206) (setting [4]); 87 nmol in the data set on ΔfraB::kan (HMB206) (setting [6]); 8.52* nmol in data set [2] (setting [4]); 10.46* nmol in data set [2] (setting [6]).

Values taken from US10752933B2, “Methods for the identification, characterization, and use of inhibitors of the fructose-asparagine utilization pathway” (priority 2015, dated 2020).
